Columns and labels:
[1] = biological target: T1, SARS-CoV-2 S receptor binding domain, Ancestral (SARS-CoV-2, Ancestral strain, UniProt P0DTC2, biotin (biotinylated RBD, for SPR)); assay: ELISA; details: both partners purified
T1 construct: source: expressed and purified as described [52]

[2] = biological target: SARS-CoV-2 spike glycoprotein (SARS-CoV-2, Ancestral strain, UniProt P0DTC2)

B1: ADAH11 nanobody (VHH)
VHH: QVQLQESGGGLVQAGGSLRLSCAASGDSYTAYVMGWFRQAPGKEREFVASITPTNDNFSYYADSVKGRFTISRDNAKNTVYLQMNSLKPEDTAVYYCALATHSNRPTPITYWGQGTQVTVSS
notes: also called monomeric ADAH11; source: E. coli TG1, purified (Ni-NTA, SEC)
- binding result [1]: binds

B2: ADAH15 (VHH)
VHH: QVQLQESGGGLVQAGGSLRLSCAASGTTYLAANMGWFRQAPGKEREFVAAITFFHNPTVYYADSVKGRFTISRDNAKNTVYLQMNSLKPEDTAVYYCAATVLVRDRIHFSHSIGIRYWGQGTQVTVSS
- binding result [2]: binds

B3: ADAH14 (VHH)
VHH: QVQLQESGGGLVQAGGSLRLSCAASGSYFFHALMGWFRQAPVKEREFVASITAVPGATYYRRCTDSVKGRFTISRDNAKNTVYLQMNSLKPEDTAVYYCALATHSNRHTPITYWGQGTQVTVSS
- binding result [2]: binds

Reference: article PMC10702856 (Antibody Therapeutics, 2023)
